# Laboratory results: US7582627B2, “3-aminoquinazolin-2,4-dione antibacterial agents” (Warner-Lambert Company, priority 2000, dated 2009)
# By UniProt entry, the sequences of proteins in these tests, tags left out.
# UniProt P0AES4, whole entry: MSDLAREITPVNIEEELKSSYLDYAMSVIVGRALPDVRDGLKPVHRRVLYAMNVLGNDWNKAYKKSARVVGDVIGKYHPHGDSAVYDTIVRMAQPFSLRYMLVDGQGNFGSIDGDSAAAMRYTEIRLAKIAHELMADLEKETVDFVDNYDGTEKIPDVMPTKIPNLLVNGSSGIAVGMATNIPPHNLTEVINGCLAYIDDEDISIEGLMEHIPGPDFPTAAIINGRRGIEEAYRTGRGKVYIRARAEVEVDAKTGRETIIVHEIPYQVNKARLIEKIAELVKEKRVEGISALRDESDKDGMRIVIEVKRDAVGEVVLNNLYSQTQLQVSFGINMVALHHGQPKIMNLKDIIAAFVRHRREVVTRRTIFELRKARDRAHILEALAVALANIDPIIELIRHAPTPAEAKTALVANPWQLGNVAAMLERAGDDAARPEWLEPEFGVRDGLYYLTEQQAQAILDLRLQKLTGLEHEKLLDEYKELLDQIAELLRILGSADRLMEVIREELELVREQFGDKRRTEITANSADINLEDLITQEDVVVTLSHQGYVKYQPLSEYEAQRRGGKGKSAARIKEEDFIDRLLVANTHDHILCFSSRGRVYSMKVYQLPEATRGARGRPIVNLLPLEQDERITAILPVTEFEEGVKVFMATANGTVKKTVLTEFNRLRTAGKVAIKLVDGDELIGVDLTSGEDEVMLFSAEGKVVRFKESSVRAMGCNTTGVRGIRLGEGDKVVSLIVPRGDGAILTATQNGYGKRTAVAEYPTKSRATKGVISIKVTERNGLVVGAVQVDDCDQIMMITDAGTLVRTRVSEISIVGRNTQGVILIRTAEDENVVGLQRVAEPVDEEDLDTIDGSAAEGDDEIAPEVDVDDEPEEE
# How the values were obtained:
# [1] = tested on: E. coli MC4100; test: Antibacterial assay, microtitration MIC; assay type: cell-based; conditions: Gram negative; tested form: HCl
# Protocol: (§1) The compounds of the present invention are tested against an assortment of Gram negative and Gram positive organisms using standard microtitration techniques (Cohen et al., Antimicrob. Agents Chemother., 1985; 28:766; Heifetz et al., Antimicrob. Agents Chemother., 1974; 6:124). The results of the evaluation of representative 3-aminoquinazolin-2,4-diones of Formula I are shown in Table 2 and compared to two 3-hydroxyquinazolin-2,4-diones.
# [2] = tested on: E. faecalis RB1; test: Antibacterial assay, microtitration MIC; assay type: cell-based; conditions: Gram positive; tested form: HCl
# Protocol: as §1
# [3] = tested on: E. coli Tol C; test: Antibacterial assay, microtitration MIC; assay type: cell-based; conditions: Gram negative; tested form: HCl
# Protocol: as §1
# [4] = tested on: E. coli B90; test: Antibacterial assay, microtitration MIC; assay type: cell-based; conditions: Gram negative; tested form: HCl
# Protocol: as §1
# [5] = tested on: S. pyogenes C203; test: Antibacterial assay, microtitration MIC; assay type: cell-based; conditions: Gram positive; tested form: HCl
# Protocol: as §1
# [6] = tested on: S. aureus 29213; test: Antibacterial assay, microtitration MIC; assay type: cell-based; conditions: Gram positive; tested form: HCl
# Protocol: as §1
# [7] = biological target: E. coli gyrase (Escherichia coli, UniProt P0AES4+P0AES6); test: DNA gyrase supercoiling inhibition assay; conditions: read-out: E. coli gyrase IC50; supercoiling of relaxed pBR322, 30 minutes at 37° C.; tested form: HCl
# Protocol: The effects of invention compounds on the activity of DNA gyrase is determined in the supercoiling inhibition assay, following reaction conditions recommended by the enzyme supplier (Lucent, Ltd., Leicester, UK). Reactions are performed in buffer G (35 mM Tris-HCl (pH 7.5), 24 mM KCl, 4 mM MgCl2, 2 mM DTT, 1.8 mM spermidine, 1 mM ATP, 0.1 mg/mL bovine serum albumin). Relaxed plasmid pBR322 (0.25 μg, Lucent, Ltd., Leicester, UK) is reacted with 1 U E. coli gyrase (Lucent, Ltd., Leicester, UK), in the absence or presence of test compounds, for 30 minutes at 37° C. Reactions are stopped by the addition of SDS and proteinase K to respective final concentrations of 1% and 0.5 mg/mL. After an additional 30 minutes at 37° C., one-tenth volume of 10× loading buffer (0.3% bromophenol blue, 16% Ficoll, 10 mM Na2HPO4) is added, and reactions are loaded onto agarose gels and electrophoresed. The concentration of representative invention compounds of Formula I inhibiting 50% of the supercoiling activity of DNA gyrase is given as an IC50 and recorded in Table 2.
structure (smiles),measurement,setting,value
Nn1c(=O)c2cc(F)c(N3CCNCC3)c(Cl)c2n(C2CC2)c1=O,Minimum Inhibitory Concentrations E. coli MC4100,[1],16.0 µg/mL
same,Minimum Inhibitory Concentrations E. faecalis RB1,[2],>64 µg/mL
same,Minimum Inhibitory Concentrations E. coli Tol C,[3],2.0 µg/mL
same,Minimum Inhibitory Concentrations E. coli B90,[4],4.0 µg/mL
same,Minimum Inhibitory Concentrations S. pyogenes C203,[5],>64 µg/mL
same,Minimum Inhibitory Concentrations S. aureus 29213,[6],>64 µg/mL
same,IC50,[7],26 µM
